Human monoclonal antibodies against the spike receptor-binding domain (heavy:light variable regions). IC50 against pseudoviruses bearing the spike of naturally observed variants; lower = stronger; >10 µg/ml means not reached at the top dose. No active / inactive call. The stated detection limit is 0.0005 µg/ml; values near or below 0.001 µg/ml lie at the floor of the assay. A value given as a limit tells only on which side of the number the result lay.

Common to all, as to test: pseudovirus neutralization IC50; higher = weaker neutralization
The target in assay [1] is SARS-CoV-2 Omicron BA.1 spike pseudovirus. The procedure:
(§1)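 Single-round VSV luciferase pseudovirus mixed with antibody dilutions for 1 h and put on Huh-7 cells for about a day; IC50 from the dose curve.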

Assay [2] has as its target SARS-CoV-2 Omicron BA.2 spike pseudovirus. The protocol: as §1
The target in assay [3] is SARS-CoV-2 Omicron BA.2.75 spike pseudovirus. The protocol:
as §1

In assay [4] the target is SARS-CoV-2 Omicron BA.5 spike pseudovirus. The procedure: as §1
Assay [5] addresses SARS-CoV-2 Omicron BQ.1.1 spike pseudovirus. The protocol: as §1
For assay [6], the target named is SARS-CoV-2 Omicron XBB spike pseudovirus. The procedure:
as §1

Assay [7] concerns the target SARS-CoV-2 early D614G spike pseudovirus. The procedure:
as §1

B1: XGv-360 (protein)
chain 1: QLQLQESGPRLVRPSETLSLTCIVSGDSISSSTYYWGWIRQPPGKGLEWIGSILRNGTNHCNASLRSRLTISVDTSQNQFSLKLSSVTAADTATYYCTRDSDASGWSGELYYYYGMDVWGQGTTVTVSS
chain 2: DIVMTQSPLFLPVTPGEPASISCRSSQSLLHFNGYNYLDWYLQKPGQSPQLLIYLGSNRASGVPDRFSGGGSGTDFTLKISRVEAEDVGVYYCMQALQTPRTFGQGTKVDIK
For B1, the “pseudovirus neutralization IC50” value was 2.5 µg/mL in assay [1]; > 10 µg/mL in assay [2]; > 10 µg/mL in assay [3]; > 10 µg/mL in assay [4]; > 10 µg/mL in assay [5]; > 10 µg/mL in assay [6]. Besides, in assay [7], the “pseudovirus neutralization IC50” value was 0.00635 µg/mL.

B2: XGv-287 (protein)
chain 1: QVQLVQSGAEVKKPGASVKVSCKTSGYTFTTYYMHWVRQAPGQGLEWMGIINPSDGSTNYAQKFQDRVTLTKDTSTSTFYMELSSLTSEDTAKYYCARAEGSSWLGWFDPWGQGTLVTVSS
chain 2: QSVLTQPPSASGTPGQRVTISCSGSNSNIGNHFVYWYQQLPGKAPKLLIYRNNQRPSGVPDRFSGSKSGTSASLAISGLRSEDEADYYCASWNDGLSASGWVFGGGTKLTV
For B2, the “pseudovirus neutralization IC50” value was > 10 µg/mL in assay [1]; 9.1 µg/mL in assay [2]; > 10 µg/mL in assay [3]; 9.49 µg/mL in assay [4]; > 10 µg/mL in assay [5]; > 10 µg/mL in assay [6]. Besides, the “pseudovirus neutralization IC50” value in assay [7] is 0.102 µg/mL.

B3: XGv-288 (protein)
chain 1: QVQLVQSGAEVKKPGASVKVSCKASGYTFTNYYIHWVRQAPGQGLEWMAIINPSGGGASYAHKFQGRVTMTRDTSTSTLYMELISLRSDDTAVYYCARAEGSSWLGWFDPWGQGTLITVSS
chain 2: QSVLTQPPSASGTPGQRVTISCSGSSSNIGSNYVYWYQQLPGTAPKLLIYRNAQRPSGVPDRFSGSKSGTSASLAISGLRSEDEADYYCAAWDDGLSGSGWVFGGGTKLTV
Turning to B3, the “pseudovirus neutralization IC50” value in assay [1] was 0.488 µg/mL; in assay [2] it was 0.0151 µg/mL; in assay [3] it was 0.0678 µg/mL; in assay [4], 0.00768 µg/mL; in assay [5], 0.385 µg/mL; in assay [6] it was 0.489 µg/mL. For the same molecule, in assay [7], the “pseudovirus neutralization IC50” value was found to be 0.00923 µg/mL.

B4: XGv-296 (protein)
chain 1: QVQLVQSGAEVKKPGASVKISCKASGYTFTDHYVHWVRQAPGQGLEWMAIVNPSDGSTSYAQKFQGRVTMTSDTSTTTIYMELSSLRSGDTAVYYCARAEGSSWLGWFDPWGQGTQVTVSS
chain 2: QSVLTQPPSASGTPGQRVTISCSGSSSNIGGHYVYWYQQFPGTAPKLLIYRSNQRPSGVPDRFSGSKSGTSASLAISGLRSEDEADYFCAAWDDGLRGSGWVFGGGTTLTV
Consider B4, for which the “pseudovirus neutralization IC50” value in assay [1] was 2.21 µg/mL; in assay [2] it was 0.0465 µg/mL; in assay [3], 0.152 µg/mL; in assay [4], 0.0251 µg/mL; in assay [5] it was 0.974 µg/mL; in assay [6], > 10 µg/mL. In addition, the “pseudovirus neutralization IC50” value in assay [7] stood at 0.0156 µg/mL.

B5: XGv-285 (protein)
chain 1: QVQLVQSGAEVKKPGASMKVSCKASGYTFISYYMHWVRQAPGQELEWMGIINPSGGSTSYAQKFQGRVTMTRDTSTSTVYMELRSLRSEDTAVYYCARAEGSSWLGWFDPWGQGTLVTVSS
chain 2: QSVLTQPPSASGTPGQRVTISCSGSSSNIGSNLVYWYQHLPGTAPKLLIYKNTQRPSGVPDRFSGSKSGTSASLAISGLRSDDEGDYYCAAWDDGLSGSGWVFGGGTKVT
Turning to B5, the “pseudovirus neutralization IC50” value in assay [1] is > 10 µg/mL; in assay [2], 6.06 µg/mL; in assay [3] it was > 10 µg/mL; in assay [4], 8.14 µg/mL; in assay [5], 4.41 µg/mL; in assay [6], > 10 µg/mL. The “pseudovirus neutralization IC50” value in assay [7] is 0.023 µg/mL.

B6: XGv-290 (protein)
chain 1: QVQLVQSGAEVKKPGASVKVSCKASGYTFKNYHMHWVRQAPGQGLEWMGIINPSGGGSSYAQKFQGRVTMTGDTSTSTVYMELSSLRSEDTAVYYCARAEGSSWLGWFDPWGQGTLVTVSS
chain 2: QSVLTQPPSASGTPGQRVTISCSGSSSNIGSNYVYWYQQLPGTAPKVLIYRNNQRPSGVPDRFSGSKSGTSASLAISGLRSEDEAEYYCAAWDDGLSGSGWLFGGGTKLT
As to B6, the “pseudovirus neutralization IC50” value in assay [1] was 3.38 µg/mL; in assay [2] it was 0.0443 µg/mL; in assay [3], 0.236 µg/mL; in assay [4], 0.0255 µg/mL; in assay [5], 0.28 µg/mL; in assay [6], > 10 µg/mL. Besides, the “pseudovirus neutralization IC50” value in assay [7] is 0.0237 µg/mL.

B7: XGv-286 (protein)
chain 1: QVQLVQSGAEVKKPGASVKVSCKASGYTFSSYYIHWVRQAPGQGPEWMAIINPGDGGASYAQKFQGRVTLTRDTSTSTLYMELSSLRSEDTAVYYCARAEGSSWLGWFDPWGQGTLVTVSS
chain 2: QSVLTQPPSASGTPGQRVTISCSGSSSNIGSNYVYWYQQLPGTAPKLLIYRNNQRPSGVPDRFSGSRSGTSASLAISGLRSEDEADYYCAAWDDGLSGSGWVFGGGTKLT
With B7, the “pseudovirus neutralization IC50” value is 0.00234 µg/mL in assay [1]; 0.00285 µg/mL in assay [2]; 0.00309 µg/mL in assay [3]; 0.00268 µg/mL in assay [4]; 0.0274 µg/mL in assay [5]; > 10 µg/mL in assay [6]. Besides, in assay [7], the “pseudovirus neutralization IC50” value was found to be 0.00131 µg/mL.

B8: XGv-311 (protein)
chain 1: EVQLVESGGGLVQPGGSLRLSCGASGFSFSNYDIHWVRQATGKGLEWVSGVGTYGDTYYSDSVKGRFTISRENAKNSLYLQMNSLRVGDTAVYFCARGSVDPTTNWYFDLWGRGTLVTVSS
chain 2: DIQMTQSPSSLSASVGDRVTITCRASQGIRNFLAWYQQKPGKAPKLLLSAASRLESGVPSRFSGSGSGTDYTLTISSLQPEDFATYYCQQYYSSPPITFAQGTRLEIK
As to B8, the “pseudovirus neutralization IC50” value in assay [1], in assay [2], in assay [3], in assay [4], in assay [5] and in assay [6] was > 10 µg/mL in each case. Also, in assay [7], the “pseudovirus neutralization IC50” value is > 10 µg/mL.

B9: XGv-301 (protein)
chain 1: EVQLVESGGGLIQPGGSLRLSCAASGITVSSNYMRWVRQAPGKGLEWVSLLYSGGTAFYADSVKGRFTISRDNSKNTLFLQMNSLRDEDTAVYYCARDLVVYGMDVWGQGTTVTVSS
chain 2: DIQLTQSPSSLSASVGDRVTITCRASQGISSYLAWYQQKPGKAPKLLIYGASTLQSGVPSRFSGSGSGTDFTLTISSLQPEDFAIYYCQQLNSDFLTFGGGTKVEIK
Take B9: the “pseudovirus neutralization IC50” value in assay [1] is 0.0276 µg/mL; in assay [2], 0.0269 µg/mL; in assay [3] it was 0.0228 µg/mL; in assay [4], 0.022 µg/mL; in assay [5], > 10 µg/mL; in assay [6] it was > 10 µg/mL. The “pseudovirus neutralization IC50” value in assay [7] is 0.00356 µg/mL.

B10: XGv-304 (protein)
chain 1: EVQLVESGGGLIQPGGSLRLSCEASEITVSSNYMRWVRQAPGKGLEWVSLIYAGGSTFYADSVKGRFTISRDNSKNTLYLQMNSLRVEDTAVYYCARDLMVYGMDVWGQGTTVTVSS
chain 2: DIQLTQSPSSLSASVGDRVTITCRASQGISSYLAWYQQKPGKAPNLLIYGASTLQSGVPSRFSGSGSGTDFTLTISSLQPEDFATYYCQHLNSDPLTFGGGTKVEIK
Consider B10, for which the “pseudovirus neutralization IC50” value is 0.061 µg/mL in assay [1]; 0.0472 µg/mL in assay [2]; 0.421 µg/mL in assay [3]; 0.0478 µg/mL in assay [4]; > 10 µg/mL in assay [5]; > 10 µg/mL in assay [6]. Further, the “pseudovirus neutralization IC50” value in assay [7] came to 0.0255 µg/mL.

B11: XGv-343 (protein)
chain 1: QVQLVQSGAEVKKPGASVKVSCKASGYTFTSYHMHWVRQAPGQGLEWMGIINPSGGSTTYAQKFQGRVTMTRDASTSTVYMELSSLTSEDTAVYYCARAHLVVPAALGDYWGQGTLVTVSS
chain 2: QTVVTQEPSLTVSPGGTVTLTCASSTGAVTSTYFPNWFQQKLGQAPRALIYSTSNKHSWTPARVSGSLLGGKAALTLSGVQPEDEADYYCLLYYGGTWVFGGGTKLTVL
Regarding B11, the “pseudovirus neutralization IC50” value in assay [1] is 0.379 µg/mL; in assay [2], 0.107 µg/mL; in assay [3], 0.585 µg/mL; in assay [4], > 10 µg/mL; in assay [5], > 10 µg/mL; in assay [6] it was > 10 µg/mL. Besides, the “pseudovirus neutralization IC50” value in assay [7] was determined as 0.0113 µg/mL.

B12: XGv-297 (protein)
chain 1: QVQLVQSGAEVKKPGASVKVSCRTSGYTFTAYYIHWVRQVPGQGLEWMGIINPSGGGASYAQTFQGRVSLTRDTSTRTVYMDLSSLISEDTAVYYCARAEGTHWLGWFDPWGQGTLVTVSS
chain 2: QSVLTQPPSASGTPGQRVTISCSGSSSNIASNSVYWYQQLPGTAPKLLIYRNNQRPSGVPDRFSGSTSGTSASLAISGLRSEDEADYYCAAWDDNLSGSGWVFGGGTKLTVL
B12: the “pseudovirus neutralization IC50” value in assay [1] is 0.0201 µg/mL; in assay [2], 0.0178 µg/mL; in assay [3], 0.0286 µg/mL; in assay [4] it was 0.0162 µg/mL; in assay [5] it was 0.463 µg/mL; in assay [6], > 10 µg/mL. Further, the “pseudovirus neutralization IC50” value in assay [7] is 0.001 µg/mL.

B13: XGv-346 (protein)
chain 1: EVQLLESGGGLVQPGGSLRLSCAASGFTFSYFAMSWVRQAPGKGLECVSIIHGDGGNTYYADSVKGRFTISRDNSKNTLYLQMNSLRAEDTAVYYCAKFVDTAFFDSWGQGALVIVSS
chain 2: SYVLTQPPSVSVAPGKTARVTCDGNNIGVKSVQWYQQKPGQAPVLVIYYDSDRPSGIPERFSGSNSGNTATLTISRVEAGDEADYYCQVWDSSSDYLVFGGGTKLTV
As for B13, the “pseudovirus neutralization IC50” value was 0.615 µg/mL in assay [1]; 0.604 µg/mL in assay [2]; 0.924 µg/mL in assay [3]; > 10 µg/mL in assay [4]; > 10 µg/mL in assay [5]; 1.1 µg/mL in assay [6]. The “pseudovirus neutralization IC50” value in assay [7] was 0.654 µg/mL.
